Measured values from several laboratories, pooled; numbers as filed in NIAID ChemDB.

All rows: whole-cell or culture tests; organism: Mycobacterium tuberculosis

ECn: concentration that inhibits the pathogen or its effect by n%. Neighbouring rows are from separate reports. A number after MIC or MFC names an inhibition level or a share of isolates. An empty or dashed field is not shown. Percent inhibition refers to the dose given; in toxicity tests it is the harm to the cells. MIC bound: limit read from a one-dose screen.

smiles	dose	conditions	read by	changes	strain or isolate	measure	result
CC(=O)c1ccccc1Sc1nnc(N2CCN(c3nc(N4CCN(c5ccccc5)CC4)c4ccccc4n3)CC2)o1	-	-	BACTEC / fluorescence	-	H37Rv	MIC	>6.25 µg/mL
COc1cc([C@@](O)(CCN(C)C)[C@@H](c2cc(-c3ccccn3)cnc2OC)c2cccc(OC)c2F)cc(OC)n1	-	-	resazurin	-	H37Rv	MIC90	22.55 µM
Cc1c(N2CCC(N3CCCCC3)CC2)c([N+](=O)[O-])cc2c(=O)c(C(=O)O)cn(C3CC3)c12	-	-	-	-	H37Rv	MIC	6.89 µM
Cc1ccccc1Sc1nnc(N2CCN(c3nc(N4CCN(c5ccccc5)CC4)c4ccccc4n3)CC2)o1	6.25 µg/mL	-	agar / visual reading	-	H37Rv	inhibition	99%
O=C1c2ccccc2S(=O)(=O)N1CSC(=S)N1CCOCC1	-	-	-	-	H37Rv	MIC	1.56 µg/mL
[N-]=[N+]=CC(=O)OC[C@@H]1NC(=O)[C@@H](COC(=O)C=[N+]=[N-])NC1=O	12.5 µg/mL	-	BACTEC	-	H37Rv	inhibition	21%
CCOC(=O)/C(N=Nc1ccc(-c2n[nH]c(=S)o2)cc1)=C(\C)O	12.5 µg/mL	-	-	-	H37Rv	inhibition	13%
Brc1cncnc1-c1ccco1	-	-	broth dilution	-	H37Rv	MIC	1.5 µg/mL
COC1=C[C@@H](C)[C@@H]2C[C@H]3OC(O)C[C@H]4C(C)=C(OC)C(=O)[C@H]([C@@]2(C)C1=O)[C@@]34C	12.5 µg/mL	-	-	-	H37Rv	inhibition	8%
Oc1cc(Cl)ccc1Oc1ccc(Cn2ccnn2)cc1Cl	-	-	MTT	InhA overexpression	mc4914	MIC	100 µg/mL
COC(=O)c1onc(-c2c(OC)cc(OC)cc2OC)c1C(=O)OC	-	-	resazurin	-	H37Rv	MIC bound	>6.25 µg/mL
CCOC(=O)/C(N=Nc1ccc(C(=O)N/N=C\c2ccc(F)cc2)cc1)=C(\C)O	12.5 µg/mL	-	-	-	H37Rv	inhibition	62%
COC(=O)[C@]12OC[C@]34[C@H]([C@@H](O)[C@@H]1O)[C@@]1(C)C(=O)C(O)=C[C@@H](C)[C@@H]1C[C@H]3OC(=O)[C@H](OC(=O)/C=C(\C)C(C)C)[C@@H]24	-	-	-	-	H37Rv	EC50	>12.5 µg/mL
CCCCc1cc(-c2ccc(Oc3ccc(Cl)cc3O)c(Cl)c2)no1	-	-	MTT	-	H37Rv	MIC	>100 µg/mL
Cc1c(N2CCc3ccccc3C2C(=O)NC(C)(C)C)c([N+](=O)[O-])cc2c(=O)c(C(=O)O)cn(-c3ccc(F)cc3F)c12	-	-	-	-	H37Rv	MIC	84.66 µM
Clc1ccc2nc3c(c(-c4ccccc4)c2c1)SC(c1ccccc1Cl)C3	-	-	agar	-	MDR	MIC	1.91 µM
Oc1ccc2ccccc2c1/C=N/Nc1ccc2ccccc2n1	-	-	BACTEC	-	H37Rv	MIC bound	≤12.5 µg/mL
O=C(N/N=C/c1ccc(Br)cc1)c1cc(-c2ccc(F)cc2F)ccc1O	6.25 µg/mL	-	resazurin	-	H37Rv	inhibition	16%
CC1=CC(=O)[C@@H](O)[C@]2(C)[C@@H]3[C@]45COC(=O)[C@@]3(O)C(C)[C@@H]4CC(=O)O[C@@H]5C[C@@H]12	-	-	-	-	H37Rv	EC50	>12.5 µg/mL
NC(=O)c1cnccn1	-	-	-	-	TB186	MIC	3200 µg/mL
CC(=O)OCC1=C[C@@H](OCCC(C)C)O[C@H](COC(=O)C(C)(C)C)C1=O	-	-	BACTEC / radiometric	-	H37Rv	MIC	>50 µg/mL
Cc1c(N2CCCC(C(=O)N(C)C)C2)c([N+](=O)[O-])cc2c(=O)c(C(=O)O)cn(C3CC3)c12	-	-	-	-	H37Rv	MIC	13.28 µM
CC1CCCCN1C(=S)SCN1C(=O)c2ccccc2S1(=O)=O	-	-	-	-	H37Rv	MIC	1.56 µg/mL
CC(C)=CC(=O)O[C@H]1C(=O)O[C@@H]2C[C@H]3[C@H](C)C(=O)C(O[C@@H]4O[C@H](CO)[C@@H](O)[C@H](O)[C@H]4O)=C[C@]3(C)[C@H]3[C@@H](O)[C@H](O)C4(C(=O)O)OC[C@]32[C@@H]14	-	-	-	-	H37Rv	EC50	>12.5 µg/mL
NC(=O)c1nccnc1Cl	12.5 µg/mL	-	BACTEC	-	H37Rv	inhibition	-1%
O=C(N/N=C/c1ccccc1F)c1cc(-c2ccc(F)cc2F)ccc1O	6.25 µg/mL	-	resazurin	-	H37Rv	inhibition	17%
CC1CCCN(C(=S)SCN2C(=O)c3ccccc3S2(=O)=O)C1	-	-	-	-	H37Rv	MIC	0.78 µg/mL
CCC1CN2CCC3(C(=O)Nc4ccccc43)C2CC1/C(=C/OC)C(=O)OC.Cl	-	-	BACTEC	-	H37Rv	MIC bound	>12.8 µg/mL
COc1cc(C(O)(CCN(C)C)C(c2cc(-c3ccccc3)cnc2OC)c2cccc(OC)c2F)cc(OC)n1	-	-	resazurin	-	H37Rv	MIC90	5.7 µM
Brc1cncnc1-c1cccs1	-	-	broth dilution	Rifampicin- and isoniazid-resistant	MDR	MIC	0.7 µg/mL
O=C(N/N=C/c1ccccc1O)c1cc(-c2ccc(F)cc2F)ccc1O	6.25 µg/mL	-	resazurin	-	H37Rv	inhibition	17%
CCN(CC)C(=S)SCN1C(=O)c2ccccc2S1(=O)=O	6.25 µg/mL	-	-	-	H37Rv	inhibition	100%
COc1ccc2nc(Cl)c(CO)c(CO)c2c1	-	-	BACTEC	-	H37Rv	MIC bound	>12.5 µg/mL
NC(=O)c1cnccn1	-	-	resazurin	-	H37Rv	MIC90	>100 µM
Oc1cc(Cn2cc(-c3ccccc3)nn2)ccc1Oc1ccc(Cl)cc1Cl	-	-	MTT	-	H37Rv	MIC	>100 µg/mL
COC(=O)[C@@]1(C)CCC[C@]2(C)c3cc(OC)ccc3C(=O)[C@H](Cl)[C@@H]12	-	-	BACTEC	-	H37Rv	MIC bound	>12.5 µg/mL
CC(=O)O[C@@H]1[C@H](C)[C@@H]2CC(=O)O[C@@H]3C[C@H]4[C@H](C)C[C@H](O)C(=O)[C@]4(C)[C@@H]([C@@H]1O)[C@@]32C	12.5 µg/mL	-	-	-	H37Rv	inhibition	19%
NC(=O)c1csc([C@@H]2O[C@H](CO)C[C@H]2O)n1	-	-	BACTEC	-	H37Rv	MIC bound	>12.5 µg/mL
COc1cc([C@](O)(CCN(C)C)[C@@H](c2cc(-c3ccc(OC(F)(F)F)cc3)cnc2OC)c2cccc(OC)c2F)cc(OC)n1	-	-	resazurin	-	H37Rv	MIC90	0.6 µM
Cc1[nH][nH]c(=O)c1N=Nc1ccc(-c2n[nH]c(=S)o2)cc1	-	-	-	-	H37Rv	MIC	>12.5 µg/mL
COc1ccc(C(C2=C(O)CC(C)OC2=O)C2=C(O)CC(C)OC2=O)cc1	-	-	BACTEC	-	H37Rv	MIC bound	>12.5 µg/mL
Cc1ccc(NNC(=O)N2CCN(c3nc(N4CCN(c5ccccc5)CC4)c4ccccc4n3)CC2)cc1	50 µg/mL	-	agar / visual reading	-	H37Rv	inhibition	92%
CO[C@H]1/C=C/O[C@@]2(C)Oc3c(C)c(O)c4c(O)c(c(/C=N/N5CCN(C)CC5)c(O)c4c3C2=O)NC(=O)/C(C)=C\C=C\[C@H](C)[C@H](O)[C@@H](C)[C@@H](O)[C@@H](C)[C@H](OC(C)=O)[C@@H]1C	-	-	resazurin	-	H37Rv	MIC90	0.09 µM
O=c1ccc2ncccc2n1CCN1CCC(NCc2cc(Cl)c(Cl)cn2)CC1	-	-	resazurin	-	CDC1551	MIC	0.15 µg/mL
COC1=C[C@@H](C)[C@@H]2C[C@H]3OC(=O)C[C@H]4C(C)=C(OC)C(=O)[C@H]([C@@]2(C)C1=O)[C@@]34C	-	-	-	-	H37Rv	EC50	>12.5 µg/mL
Cc1ccc2c(c1)C1(c3ccc(Cl)cc3)Oc3ccc(C)cc3C(c3ccc(Cl)cc3)(O2)O1	-	-	BACTEC	-	H37Rv	MIC bound	>12.5 µg/mL
Cc1cc(C(=O)NCc2ccc(Oc3ccc(Cl)cc3Cl)c(O)c2)no1	-	-	MTT	InhA overexpression	mc4914	MIC	>80 µg/mL
CNC(=O)OCc1c(COC(=O)NC)c(C)n(-c2ccccc2)c1C	12.5 µg/mL	-	BACTEC	-	H37Rv	inhibition	0%
Clc1ccc(C2Cc3nc4ccc(Cl)cc4c(-c4ccccc4)c3S2)cc1	-	-	agar	-	MDR	MIC	3.82 µM
CC(=O)O[C@@]12C[C@@H](C)[C@@]3(O)[C@@H](C=C(CO)C[C@]4(O)C(=O)C(C)=C[C@@H]34)[C@@H]1C2(C)C	-	-	BACTEC	-	H37Rv	MIC	>12.5 µg/mL
O=[N+]([O-])c1cccc(C2Cc3nc4ccc(Cl)cc4c(-c4ccccc4)c3S2)c1	-	-	agar	-	MDR	MIC	0.95 µM
COc1ccccc1Sc1nnc(N2CCN(c3nc(N4CCN(c5ccccc5)CC4)c4ccccc4n3)CC2)o1	-	-	agar / visual reading	-	H37Rv	MIC	100 µg/mL
COc1cc(N=C(N)N=C(N)N)c2ncccc2c1	6.25 µg/mL	-	resazurin	-	-	inhibition	-2%
COc1cc(C(O)(CCN(C)C)C(c2cc(-c3ccc(C#N)cc3)cnc2OC)c2cccc(OC)c2F)cc(OC)n1	-	-	resazurin	-	H37Rv	MIC90	6 µM
C=C1C(=O)N[C@@H](C)C(=O)N[C@H](CC(C)C)C(=O)N[C@H](C(=O)O)[C@H](C)C(=O)N[C@H](CCCN=C(N)N)C(=O)N[C@@H](/C=C/C(C)=C/[C@H](C)[C@H](Cc2ccccc2)OC)[C@@H](C)C(=O)N[C@@H](C(=O)O)CCC(=O)N1C	-	-	resazurin	Rifampicin-resistant	-	MIC	>53 µM
CC1COc2c(N3CCN(C)CC3)c(F)cc3c(=O)c(C(=O)O)cn1c23	-	-	resazurin	-	Beijing 1237	MIC	0.3 µg/mL
COC(=O)[C@]12OC[C@]34[C@H]([C@@H](O)[C@H]1O)[C@@]1(C)CC(=O)C(O)=C(C)[C@@H]1C[C@H]3OC(=O)[C@H](OC(=O)/C=C(\C)C(C)C)[C@@H]24	12.5 µg/mL	-	-	-	H37Rv	inhibition	9%
COc1ccc(/C=N/NC(=O)c2cc(-c3ccc(F)cc3F)ccc2O)cc1	6.25 µg/mL	-	resazurin	-	H37Rv	inhibition	15%
Cc1c(-c2ccc(C(c3ccccc3)N3CCN(C)CC3)cc2)c([N+](=O)[O-])cc2c(=O)c(C(=O)O)cn(C(C)(C)C)c12	-	-	-	-	H37Rv	MIC	>21.22 µM
Oc1cc(CNC2CCCCC2)ccc1Oc1ccc(Cl)cc1Cl	-	-	MTT	INH resistant katG deletion	mc4977	MIC	6.25 µg/mL
O=C(N/N=C/c1ccc(O)cc1)c1cc(-c2ccc(F)cc2F)ccc1O	-	-	resazurin	-	H37Rv	MIC	>6.25 µg/mL
CO[C@@]12[C@H](COC(N)=O)C3=C(C(=O)C(C)=C(N)C3=O)N1C[C@H]1[C@@H]2N1C	-	-	BACTEC	-	H37Rv	MIC	0.8 µg/mL
O=C(c1ccccc1)c1ccc(Oc2ccc(Cl)cc2Cl)c(O)c1	-	-	MTT	-	H37Rv	MIC	100 µg/mL
O=C(OCCCl)c1cnccn1	-	-	resazurin	-	H37Rv	MIC90	227.4 µM
O=C(CN1C(=O)CC(NC(=O)OCc2ccccc2)C1=O)NCC(=O)Oc1ccc([N+](=O)[O-])cc1	12.8 µg/mL	-	BACTEC	-	H37Rv	inhibition	29%
N#Cc1ccc(NNC(=O)N2CCN(c3nc(N4CCN(c5ccccc5)CC4)c4ccccc4n3)CC2)cc1	6.25 µg/mL	-	BACTEC / fluorescence	-	H37Rv	inhibition	0%
O=C(NNc1ccccc1)C(O)C(O)C(O)C(O)CO	-	-	BACTEC	-	H37Rv	MIC	≥12.5 µg/mL
CCCCc1cn(Cc2ccc(Oc3ccc(Cl)cc3Cl)c(O)c2)nn1	-	-	MTT	-	H36Rv	MIC	0.6 µg/mL
Cc1[nH]n(CCO)c(=O)c1N=Nc1ccc(-c2n[nH]c(=O)n2-c2ccccc2)cc1	-	-	-	-	H37Rv	MIC	>12.5 µg/mL
O=C(OCCCOC(=O)c1cnccn1)c1cnccn1	-	pH 6.6	resazurin	Pyrazinamide-resistant	-	MIC90	>347 µM
O=C1NC(CCCl)C(=O)NC1CCCl	-	-	BACTEC	-	H37Rv	MIC	≥12.5 µg/mL
C[Si](C)(C)c1cc(-c2ccc(Oc3ccc(Cl)cc3Cl)c(O)c2)no1	-	-	MTT	InhA overexpression	mc4914	MIC	100 µg/mL
CO[C@@H]1[C@@H](OC(=O)c2ccc(C)[nH]2)[C@@H](O)C(Oc2ccc3c(O)c(NC(=O)c4c[nH]c(C(=O)Nc5c(O)c6ccc(OC7OC(C)(C)[C@H](OC)[C@@H](OC(=O)c8ccc(C)[nH]8)[C@H]7O)c(C)c6oc5=O)c4C)c(=O)oc3c2C)OC1(C)C	-	-	BACTEC	-	H37Rv	MIC	6.4 µg/mL
C[C@@H]1C[C@H](O)C(=O)[C@]2(C)[C@H]3[C@H](O)C(=O)[C@H](C)[C@@H]4CC(=O)O[C@H](C[C@@H]12)[C@]34C	12.5 µg/mL	-	-	-	H37Rv	inhibition	12%
NC(=O)c1[nH]c(COCCO)nc1N	12.5 µg/mL	-	BACTEC	-	H37Rv	inhibition	0%
Cc1[nH]n(-c2ccccc2)c(=O)c1N=Nc1ccc(-c2n[nH]c(=S)n2-c2ccccc2)cc1	-	-	-	-	H37Rv	MIC	>12.5 µg/mL
O=c1[nH][nH]c(=O)c2c1nc(SCc1c(Cl)cccc1Cl)n2Cc1ccccc1	-	-	BACTEC	-	H37Rv	MIC bound	>12.5 µg/mL
c1ccc(-c2c3c(nc4ccccc24)CC(c2cccc4ccccc24)S3)cc1	-	-	agar	-	H37Rv	MIC	32.09 µM